PubChem BioAssay AID1224833, University of Georgia | 2016
Test: 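Human genes whose knock-down alters rotavirus replication in monkey cells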 (primary screen). Cell system: monkey MA104 kidney cells. Reagent: siRNA pool against human genes, 50 nM. Time to read-out: 48 h knock-down before infection; read 24 h after infection. Treatment: infection with rotavirus strain RV3 two days after transfection; infectious dose for this stage not given. Measurement: 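z-score of rotavirus antigen signal per well, from a fluorescent immunoassay, relative to non-targeting control wells on the same plate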. Scale: z-score vs non-targeting control: higher = more rotavirus replication than with non-targeting control. Rule for the call: In these data the active calls have z-score vs non-targeting control at about -1 or lower, or at about 1 or higher. Meaning of the calls: active = z-score beyond 1 either way; inactive = z-score within 1 of zero.
Here is a random part of about 12,000 reagents tested. Of all reagents, about 5,600 (46%) were called active. 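Active calls cover z-scores past 1 in both directions, so they include lowered as well as raised rotavirus replication.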 Unmarked entries are inactive.

z-score vs non-targeting control | gene
0.408 | CAVIN3
-1.49 (active) | DENND4C
-2.07 (active) | BTF3L4
-1.57 (active) | MAP2
0.794 | LRP2BP
-0.0395 | OSER1
-0.249 | SRP68
-0.669 | ITGB8
-1.67 (active) | CHURC1
-1.11 (active) | SLC25A41
-0.747 | SHC4
-0.451 | HMGB3
0.781 | TRDMT1
-0.575 | AGBL5
-3.6 (active) | ACTL10
1.23 (active) | SERPINB8
-1.22 (active) | TNNT2
-0.608 | COMMD7
-1.73 (active) | CYP2C8
-1.39 (active) | NSL1
-1.09 (active) | LPAR5
1.18 (active) | PPP2R5C
-0.225 | GSDMD
3.03 (active) | MYH9
-0.563 | ZNF134
-2.52 (active) | RBBP9
2.52 (active) | C1orf116
-1.22 (active) | AOC3
0.998 | ENPP4
-0.0774 | BRD7
-2.77 (active) | SH3PXD2A
-0.963 | GPX6
-1.49 (active) | MRPL23
-1.38 (active) | VRTN
-0.999 | C19orf53
-0.406 | RPL10L
-1.03 (active) | ZNF572
1.68 (active) | CEP350
0.0157 | CNIH2
-2.26 (active) | CENPT
2.24 (active) | RGS20
-2.07 (active) | CABP7
-2.8 (active) | MUC17
-0.429 | ZNF546
0.837 | LRRC4
